Construct, isoform or probe ends are uncertain for at least one entry. Where a protein sequence is shown, tags need not be part of it.
Biological target: T1, C-MabR (UniProt P9WPH5)
T1 sequence (looked up): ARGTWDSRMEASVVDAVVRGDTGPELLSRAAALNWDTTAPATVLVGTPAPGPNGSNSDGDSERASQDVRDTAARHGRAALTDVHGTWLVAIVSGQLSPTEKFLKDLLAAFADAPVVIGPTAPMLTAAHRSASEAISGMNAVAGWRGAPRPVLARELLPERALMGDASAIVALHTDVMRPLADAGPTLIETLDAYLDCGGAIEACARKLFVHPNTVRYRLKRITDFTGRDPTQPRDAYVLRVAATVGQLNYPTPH
Assay: TSA (isothermal analysis)
Settings: 49 C, room temperature 30 min, recombinant protein, residues 161-414, protein details: N-terminal 6xHis (pET28a)

In the case of “GTTTTGTTGGTTATATACAAAAA (double strand) [23-bp FAS-II promoter dsDNA]”, the Kd is reported as 3000 nM.
